HIV-1 LAI Vif substitutions under APOBEC3G selection

Vif of LAI (a laboratory-adapted subtype B strain), residues 12-115; positions count from the first residue of the whole protein:
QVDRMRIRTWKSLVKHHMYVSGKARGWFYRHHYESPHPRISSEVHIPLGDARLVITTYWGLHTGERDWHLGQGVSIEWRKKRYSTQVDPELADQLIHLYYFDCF

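Pooled viruses with one designed change each in Vif went through two 72 h rounds in SupT1 cells expressing APOBEC3G. Frequencies after the second round, in three biological replicates, were compared with the merged pool after the first round. Changes do not touch integrase, since the pol overlap was removed.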

The score is log2 enrichment against the wild-type codon: higher is better tolerated, lower is depleted.
A change reads original residue, position, new residue.
The median of three replicates is given.
Input reads are the counts in the merged round-one pool, before selection.
Positive scores are uncertain; some enriched variants did not exclude APOBEC3G in a separate test.
The scan is noisy: the rank correlation of replicates is about 0.4 to 0.65, and variants with under about 50 input reads tend to read too high.
Some changes are missing from the data or left out.

| change | input reads | median log2 enrichment |
|---|---|---|
| V13G | 306 | -0.77 |
| D14A | 7040 | -0.63 |
| D14H | 1145 | -1.58 |
| D14I | 139 | -0.70 |
| D14N | 785 | -2.31 |
| D14R | 880 | -1.79 |
| D14S | 438 | -2.04 |
| R15G | 477 | -2.48 |
| M16F | 691 | -0.10 |
| M16N | 32 | 0.01 |
| R17D | 262 | 3.81 |
| R17P | 119 | 0.14 |
| I18C | 813 | -1.41 |
| I18E | 762 | -2.85 |
| I18N | 486 | -2.07 |
| R19C | 385 | -3.30 |
| R19V | 385 | -1.27 |
| T20G | 433 | -2.85 |
| W21C | 865 | -1.55 |
| W21L | 451 | -1.63 |
| W21N | 117 | 0.64 |
| W21V | 304 | -2.89 |
| K22L | 31 | -0.49 |
| S23F | 383 | -2.94 |
| S23L | 474 | -0.89 |
| V25K | 355 | -0.95 |
| V25L | 108 | -4.12 |
| H27F | 29 | 1.87 |
| H27N | 350 | 0.27 |
| H28D | 936 | -2.68 |
| H28E | 182 | -2.04 |
| H28F | 63 | 0.59 |
| H28G | 443 | -2.66 |
| H28T | 67 | 0.75 |
| Y30A | 236 | 0.86 |
| V31E | 69 | 1.47 |
| V31G | 971 | 1.48 |
| V31R | 849 | -0.70 |
| S32D | 928 | 0.68 |
| S32Q | 57 | -0.02 |
| S32W | 54 | 0.35 |
| G33A | 22 | -0.46 |
| G33H | 613 | -2.43 |
| K34H | 58 | 0.58 |
| K34V | 416 | -3.33 |
| R36C | 376 | -3.09 |
| R36G | 1025 | -1.11 |
| G37P | 681 | -1.75 |
| G37Y | 805 | -1.99 |
| F39G | 446 | -2.38 |
| F39L | 152 | -0.55 |
| Y40F | 991 | -1.61 |
| Y40K | 100 | -0.95 |
| H43A | 480 | 1.54 |
| H43D | 87 | 0.95 |
| H43I | 409 | -1.83 |
| H43Q | 265 | -1.76 |
| Y44A | 997 | -2.18 |
| Y44E | 381 | -2.70 |
| E45V | 247 | -2.55 |
| S46F | 461 | -2.09 |
| H48E | 456 | -1.30 |
| P49G | 1016 | -2.45 |
| R50F | 445 | -2.46 |
| S52I | 351 | -3.50 |
| S53N | 359 | -2.11 |
| E54V | 445 | -1.52 |
| V55K | 291 | -2.38 |
| V55W | 27 | 1.03 |
| H56Y | 366 | -0.31 |
| I57R | 466 | -0.44 |
| I57V | 319 | -4.89 |
| I57Y | 26 | -2.08 |
| P58F | 448 | -1.77 |
| G60E | 375 | -0.78 |
| G60Y | 297 | -1.18 |
| A62T | 530 | -0.65 |
| V65A | 770 | -2.97 |
| I66P | 436 | -1.88 |
| I66W | 458 | -2.50 |
| I66Y | 125 | 0.19 |
| T67V | 144 | 4.01 |
| G71R | 34 | -0.24 |
| H73G | 506 | -0.87 |
| G75C | 2272 | -0.35 |
| G75K | 444 | -2.46 |
| G75P | 352 | -1.92 |
| G75Q | 387 | -2.03 |
| E76H | 23 | 0.33 |
| R77I | 512 | -0.94 |
| R77Q | 39 | 2.34 |
| R77Y | 369 | -2.44 |
| D78H | 747 | -2.29 |
| H80E | 433 | -3.79 |
| L81C | 338 | -2.62 |
| L81N | 506 | -2.25 |
| Q83K | 451 | 0.76 |
| G84I | 21 | -0.17 |
| G84S | 734 | -2.06 |
| V85R | 377 | -1.19 |
| S86F | 527 | -1.12 |
| I87G | 702 | -1.05 |
| E88H | 495 | -3.98 |
| E88N | 952 | -0.77 |
| E88S | 264 | -1.48 |
| W89E | 775 | -2.63 |
| R90E | 890 | -3.27 |
| R90L | 16 | -1.85 |
| K91A | 443 | -2.35 |
| K92Y | 360 | -2.66 |
| Q97W | 326 | -1.76 |
| V98W | 370 | -2.28 |
| D99Y | 1041 | -1.93 |
| P100D | 67 | -3.86 |
| E101D | 395 | -1.43 |
| D104A | 268 | -2.63 |
| D104L | 202 | -2.68 |
| L106R | 304 | -1.54 |
| I107F | 119 | -1.91 |
| H108S | 73 | -1.98 |
| Y111I | 357 | -3.12 |
| Y111N | 100 | -0.21 |
| F112S | 98 | -1.04 |
| D113E | 971 | -1.32 |
| D113K | 487 | -3.07 |
| F115A | 1073 | -0.62 |

A selection of 10 entries from above:

{"change": "L106R", "input reads": "304", "median log2 enrichment": -1.54}
{"change": "A62T", "input reads": "530", "median log2 enrichment": -0.65}
{"change": "Y44E", "input reads": "381", "median log2 enrichment": -2.70}
{"change": "V31E", "input reads": "69", "median log2 enrichment": 1.47}
{"change": "G75Q", "input reads": "387", "median log2 enrichment": -2.03}
{"change": "K34H", "input reads": "58", "median log2 enrichment": 0.58}
{"change": "R19V", "input reads": "385", "median log2 enrichment": -1.27}
{"change": "E101D", "input reads": "395", "median log2 enrichment": -1.43}
{"change": "D104A", "input reads": "268", "median log2 enrichment": -2.63}
{"change": "V55K", "input reads": "291", "median log2 enrichment": -2.38}

Values reported by Langley et al. 2025, preprint (doi:10.1101/2025.10.20.683452).